Test results taken from article doi:10.1101/2025.05.22.655646, “Structural insights into VRC01-class bnAb precursors with diverse light chains elicited in the IAVI G001 human vaccine trial” (bioRxiv, 2025).

Target: T1, eOD-GT8 (Human immunodeficiency virus 1, …)
T1 construct: also called engineered outer domain germline-targeting version 8; eOD-GT8 monomer
T1 chain: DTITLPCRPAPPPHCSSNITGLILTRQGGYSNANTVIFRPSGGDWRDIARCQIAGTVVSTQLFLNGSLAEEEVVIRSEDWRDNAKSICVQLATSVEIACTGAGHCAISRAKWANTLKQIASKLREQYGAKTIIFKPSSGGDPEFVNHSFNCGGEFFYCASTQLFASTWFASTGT
Assay: SPR
Conditions: both partners purified

B1: G001_LD_V05_VRC01c_14 (antibody, V domains shown)
VH: not shown
VL: DIQMTQSPSSLSASVGDRVTITCQASQDINNYLNWYQQKPGKAPKLLIYDASNLETGVPSRFSGSGSGTDFTFTISSLQPEDIATYYCQQYEFFGGGTKVEIK
**Q.** How did the Kd turn out when B1 was run?
**A.** Its Kd is 0.37 nM.
